Assay results published in US10220083B2 (priority 2014, dated 2019).

Assays:
[1] = system: human pneumococcal reference serum 007sp (pooled sera of humans immunized with Pneumovax); assay: Glycan microarray binding with human pneumococcal reference serum 007sp; conditions: for recognition by antiserum from human vaccinated with Pneumovax23 (007sp): anti-human IgM and IgG detection, FIGS. 4 (B) and 4 (C)
[2] = system: mAb 28H11 (protective murine IgM raised against native Sp8 polysaccharide); assay: Glycan microarray binding of mAb 28H11
mAb 1F1 = assay: Glycan array analysis using mAb 1F1; type: binding, mouse; conditions: glycan microarray, FIG. 11 (A)
mAb 1H8 = assay: Glycan array analysis using mAb 1H8; type: binding, mouse; conditions: glycan microarray, FIG. 11 (A)

SMILES	recognition by antiserum from human vaccinated with Pneumovax23 (007sp) [1]	interaction of mAb 28H11 with saccharide ([2]; glycan microarray, FIG. 12)	inhibition of mAb 28H11 binding by native S. pneumoniae type 8 CPSs ([2]; native CPS up to 10 μg/mL)	interaction with the antiserum from human vaccinated with Pneumovax23 ([1]; FIG. 4)	recognition by mAb 1F1 (mAb 1F1)	recognition by mAb 1H8 (mAb 1H8)
NCCCCCO[C@H]1OC(CO)[C@@H](O[C@@H]2OC(CO)[C@@H](O[C@@H]3OC(C(=O)O)[C@@H](O[C@H]4OC(CO)[C@H](O)C(O)C4O)C(O)C3O)C(O)C2O)C(O)C1O (some centres unmarked)	recognized					
NCCCCCO[C@@H]1OC(C(=O)O)[C@@H](O[C@H]2OC(CO)[C@H](O[C@H]3OC(CO)[C@@H](O[C@@H]4OC(CO)[C@@H](O)C(O)C4O)C(O)C3O)C(O)C2O)C(O)C1O (some centres unmarked)	recognized					
NCCCCCO[C@H]1OC(CO)[C@H](O[C@H]2OC(CO)[C@@H](O[C@@H]3OC(CO)[C@@H](O[C@@H]4OC(C(=O)O)[C@@H](O)C(O)C4O)C(O)C3O)C(O)C2O)C(O)C1O (some centres unmarked)	recognized	robust interaction	ablation of binding	Robust interactions	recognized with similar intensities	recognized with similar intensities
